{"source": "PubChem BioAssay AID485275", "about": "(NMMLSC, 2010)", "note": "The entries are a selection whose mix differs from that of the whole data set. Active and inactive are the calls of the source.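 Rule for the calls: active = plate passing quality check with inhibition over a set limit, or well fluorescence over plate mean plus 4 SD; inactive = the rest.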"}
{"experiment": "inhibitors of Candida efflux pumps in yeast, primary screen, S. cerevisiae, Nile Red, multiplex (AID 485275);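 note: Nile Red retained in pooled yeast measured as flow cytometry median fluorescence; 0% = buffer negative control and 100% = Enniatin B positive control; higher means more Nile Red kept so more efflux inhibition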", "conditions": "S. cerevisiae Candida pump triplex, at 10 µM, stronger effect = higher value"}
{"compound": "ClCCSc1nnc(-c2cccnc2)o1", "inhibition": "inactive: -0.12%"}
